A mixed list of measured activities; the numbers were collected in NIAID ChemDB.

Common to all: tests in culture; species: Candida albicans; method: broth dilution; endpoint: MIC80

A number after MIC or MFC names an inhibition level or a share of isolates. An empty or dashed field is not shown. Lines come from different laboratories, so protocols vary.

compound | conditions | strain or isolate | result
CCN(CC)CCCC(C)Nc1c2ccc(Cl)cc2nc2ccc(OC)cc12 | biofilm | SC5314 | 512 µg/mL
CCC(C)n1ncn(-c2ccc(N3CCN(c4ccc(OC[C@H]5CO[C@](Cn6cncn6)(c6ccc(Cl)cc6Cl)O5)cc4)CC3)cc2)c1=O | - | Y0109 | 0.089 µM
CN1CCN(c2n[nH]c(N3C(=O)CS[C@@H]3c3ccc4c(c3)OCO4)n2)CC1 | - | 159.95 | 0.79 µg/mL
COc1ccc(N2C(=O)C=CC2=O)cc1 | - | ATCC 10231 | 2 µg/mL
CCOC(=O)c1nc(NC(=O)c2nc(NC(=O)c3cc([N+](=O)[O-])cn3C)cn2C)cn1C | - | SC5314 (clinical isolate) | >200 µg/mL
CC(=O)c1ccc2c(c1)N(CC(O)(Cn1cncn1)c1ccc(F)cc1F)C(=O)CO2 | - | ATCC 24433 | >128 µg/mL
CC(C)C(=O)OC1CCN(CC(O)(Cn2cncn2)c2ccc(F)cc2F)CC1 | - | Y0109 | 0.153 µM
CC(C)(C)c1ccccc1N1C(=O)C=CC1=O | - | ATCC 10231 | 4 µg/mL
O=C(OC1CCN(CC(O)(Cn2cncn2)c2ccc(F)cc2F)CC1)C(F)(F)F | - | Y0109 | 2.304 µM
O=C1C=CC(=O)N1CCN1CCOCC1 | - | ATCC 10231 | 128 µg/mL
COc1cc(/C=C/c2ccc(O)cc2)cc(OC)c1 | - | Y0109 | 32 µg/mL
O=C(CCl)OC1CCN(CC(O)(Cn2cncn2)c2ccc(F)cc2F)CC1 | - | Y0109 | 0.604 µM
CCCCCCCC(=O)Nc1ccc(N2CCN(CC(O)(Cn3cncn3)c3ccc(F)cc3F)CC2)c(F)c1 | - | - | 0.00097 µg/mL
CN(C)CCN1C(=O)C=CC1=O | - | ATCC 10231 | 128 µg/mL
Oc1ccc2c(c1)CCc1ccc(O)c(c1)Oc1ccc(cc1)CCc1cccc(O)c1O2 | - | CA2 | 32 µg/mL
O=C1C=CC(=O)N1c1ccc(Br)cc1 | - | ATCC 10231 | 1 µg/mL
O=C(COc1cccc2ccccc12)OC1CCN(CC(O)(Cn2cncn2)c2ccc(F)cc2F)CC1 | - | Y0109 | 0.479 µM
NC(=S)N/N=C/c1ccsc1/C=N/NC(N)=S | - | ATCC 66396 | >250 µg/mL
CCC(=O)OC1CCN(CC(O)(Cn2cncn2)c2ccc(F)cc2F)CC1 | - | Y0109 | 0.159 µM
CCN1C(=O)C=CC1=O | - | ATCC 10231 | 2 µg/mL

The first 2 rows once more:

compound,conditions,strain or isolate,result
CCN(CC)CCCC(C)Nc1c2ccc(Cl)cc2nc2ccc(OC)cc12,biofilm,SC5314,512 µg/mL
CCC(C)n1ncn(-c2ccc(N3CCN(c4ccc(OC[C@H]5CO[C@](Cn6cncn6)(c6ccc(Cl)cc6Cl)O5)cc4)CC3)cc2)c1=O,-,Y0109,0.089 µM